From publication PMC9774897 (Antibiotics, 2022) come the findings set out here.

The subject of assay [1] is M. bovis.
Assay [2] relates to MDR M. tuberculosis.
In assay [3] the test system is M. tuberculosis H37Rv.
For assay [4], the system named is M. tuberculosis H37Ra.
The subject of assay [5] is MDR M. tuberculosis. This is another data set of the same source.
Assay [6] relates to M. tuberculosis H37Rv. This is another data set of the same source.
Assay [7] relates to M. tuberculosis H37Ra. The source holds these as a separate data set.
Assay [8] has as its system M. bovis. The source holds these as a separate data set.

Converted amounts (≈) assume the structure as drawn. Non-standard residues stand in square brackets, D forms with d. Residues, ends and D or L forms follow the SMILES beside them. Some results are limits rather than exact numbers.

On to `CC(C)[C@@H](NC(=O)[C@@H](CO)NC(=O)[C@@H](CCCNC(=N)N)NC(=O)[C@@H](CCCNC(=N)N)NC(=O)[C@@H](CCCNC(=N)N)NC(=O)[C@@H](CCCNC(=N)N)NC(=O)CN)C(=O)N[C@H](CCC(N)=O)C(=O)N[C@H](Cc1c[nH]c2ccccc12)C(=O)N[C@H](CS)C(=O)N[C@H](C)C(=O)O` [D-hLF 1-11] (H-G[dR][dR][dR][dR][dS][dV][dQ][dW][dC][dA]-OH; N-terminus and C-terminus assumed), for which the “MIC, MODS Assay” value against M. bovis [1] was over 200 µg/mL; in the assay with MDR M. tuberculosis [5], 200 µg/mL (≈ 145 µM); against M. tuberculosis H37Rv [6], 100 µg/mL (≈ 72.7 µM); with M. tuberculosis H37Ra [7], 100 µg/mL (≈ 72.7 µM). Moreover, the “MIC, REMA” value against MDR M. tuberculosis [2], in the assay on M. tuberculosis H37Rv [3], against M. tuberculosis H37Ra [4] and against M. bovis [8] was 100 µg/mL (≈ 72.7 µM) each time.
